Assay results reported in PMC3441419, “The Redox-Sensing Regulator Rex Modulates Central Carbon Metabolism, Stress Tolerance Response and Biofilm Formation by Streptococcus mutans”.

Target: T1, rRex (UniProt Q8DU91)
T1 sequence (looked up, limits assumed): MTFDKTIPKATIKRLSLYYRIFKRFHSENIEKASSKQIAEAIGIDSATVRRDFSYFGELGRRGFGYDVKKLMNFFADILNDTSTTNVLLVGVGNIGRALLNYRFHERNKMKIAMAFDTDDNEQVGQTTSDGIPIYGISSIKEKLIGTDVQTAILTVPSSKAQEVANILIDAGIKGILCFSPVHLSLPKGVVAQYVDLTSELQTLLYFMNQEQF
Assay: EMSA
Settings: 20 mM Tris pH 8.0, 1 mM EDTA, 75 mM KCl, 2 mM DTT, 10% glycerol, 10 min at room temperature (+15 min after NAD+/NADH), 5% native PAGE, recombinant protein, protein details: N-terminal His (pQE30), probe letters rebuilt from the primers and the genome

Sequence | binding result | also measured
ACAAGCCCATACTGAGTTTGGACATTAAAGCTCAGCAGGGCTATGATTATGATGTCATTATCATCGGCGGCGGTGTTTCAGGTGTGACTCTAGCC (double strand) [gshR promoter] | – | binding result (10 mM NADH (complex formation inhibited)): binds more weakly
ATGACAGTTCCTCGCATTTTTAATTTATGTTATAATTATAAGTGAAAAACATCACATTTGAAAAGCCTTACAAATATCTTAAAAAATGACTTTTTATGACTTTTAGATGGGAGGTTTGCTTAGT (double strand) [frdC promoter] | – | binding result (10 mM NADH (binding almost abolished)): binds more weakly
TTATCGAAAGTCACTGTACTTCCTCCTTTTTCTATATACTATTGTAAAAAAAGTTTGTGAAAAATGCAACATCTTTTGAAGGGTCTTGTGATAGACATTTCTTATATAGTCTTTAGTTTTTTTTATAACAAATTTGACCACCCGTTAGACGGGTGGTCATAATTATAAGGGGTACTGTTAATTTTGATGGAGTAAAAGTTTTCTTTTGTTTCAAACCATTGATATAAGATTGTTAAAAATTTCTCTCCAATCTCTGTATTAAACTAACGGCTCCAGTATATTAAACACTGTTAGACTTTACTTTGCC (double strand) [rex promoter] | binds | –
AGTCCTTAAGTAAAACCACATCTGTTTTGACGGCTCTCACCAAAAAGAGTCTGAGACAAAAAGATTTCTCAAACTCTTTGATTAGTGACTTTAGTCTGTCTCGCTCCGTAGGTGCGAGACAAATAAACCACCCGCTATGCGGGTGCGCATTGAATGTTATACAAAAAATCTCCAAACGCGATACAATAAAGGTGTTCAAGCCTATTGTAAAGCGAAAGGAGCAAAAAATGGCACAAAAGGCACATAGTTTATCACATACAAAGTGGATATGTTCTATCACCTTGTGTTCACCCCTAAGTATAGACGAAAAATCATCTATAATCAATATCGAAGTAGTTTAGGCGAGATATTCCAACGATTATGCAGTTACAAAGATGTTGAAATTATCGAAGGCCATCTGATGCCAGACC (double strand) [tpn promoter] | binds | –
CAGCATCCGCACAGTCTTCATATTTAGCTGCATAGATTTTTTTTGGTGAAGTAAAAGCAAGTGCATGACTAAGATCAAGAGCGTCGCCAACGGCTTTTTCAAATAATTGAGGAATTTCAATAATACCAAGTTCTTGAGCAATTCCTTGGTTAACGAGAGCGAAAGCGTAAGATGAACCTACAGCACCATCACCAACAAGGATGACTTTTTTATGTTGTTTAGTTGCAGTCATGTTCTAAACATCTCCTTATAATTTATTAAGTATATATTCTATACATTTTCATTCTAACACTTTTTGTTAAGAAAGTCACTAATATTTACCTTTCTCAGCGGAAAACTATAGTAGAATAGCTGAAAAAGAGCCTTATTTGTGATATAATATAAAAGAGTTTTAGACTAGAAATGAGGCATTTTTTAATGCAAGATAGAAATTTAGTAGATGTCAATTTAACAAGTGAAATGAAGACGAGTTTTATTGACTATGCTATGAGTGTTATTGTTGCTCGGGCTCTTCCAGA (double strand) [ldh promoter] | binds | –
CCTTGGTACTTTATTGCTGATAAGAGTGCTTAAAACAAATAGAAATCTCAGAAAATAATCTGAGGTTTTTTAATTTTCAATAATTTATTAGCCCTCACACGATCAAGATTTTCAAGGGGATAAAAATTTGGGAAAAAATTCACAAAAAGACTTGCATTTTTTTGTGAAAAGGGTTACAATGACAAGTGAAGAAAATCACAAGAGTATCTTTCTTCTTAAACTATTTACCAACTATTATTTTTAGGAGGAATTGTTGAATGGCAAAAGAAACAAAAACAGAAGCACTCACTGCTGAAGAAGCAGCTA (double strand) [adhE promoter] | binds | binding result (rRex preloaded with NAD+, desalted): binds; binding result (rRex preloaded with NADH, desalted (binding inhibited)): binds more weakly

For at least one entry, the source does not settle the construct or the ends of the probe. Weaker means in comparison with the reference protein, sequence or condition of that experiment. Where a protein sequence is shown, tags need not be part of it.
